Columns and labels:
[1] = tested on: WT RT (HIV-1 wild type strain); test: EC50 assay, WT RT strain; assay type: cell-based; settings: read-out: EC50 WT RT
[2] = biological target: WT RT (HIV-1 RT) (Human immunodeficiency virus type 1 group M subtype B, UniProt P03366); settings: read-out: IC50 WT RT; wild type RT
[3] = biological target: V106A mutant RT (HIV-1 RT) (Human immunodeficiency virus type 1 group M subtype B, UniProt P03366, V705A); settings: read-out: IC50 V106A
[4] = biological target: Y188L mutant RT (HIV-1 RT) (Human immunodeficiency virus type 1 group M subtype B, UniProt P03366, Y787L); settings: read-out: IC50 Y188L
[5] = biological target: K103N/Y181C double mutant RT (HIV-1 RT) (Human immunodeficiency virus type 1 group M subtype B, UniProt P03366, K702N/Y780C); settings: read-out: IC50 K103N/Y181C

CCN1c2ncc(CCOc3cccc4c(NS(C)(=O)=O)cccc34)cc2C(=O)N(C)c2ccc(F)nc21
EC50 [1]: < 100 nM | IC50 [2]: < 100 nM | IC50 [3]: 100 to 1000 nM | IC50 [4]: 100 to 1000 nM | IC50 [5]: < 100 nM
